Reference: PubChem BioAssay AID1159583 (ICCB-Longwood Screening Facility, Harvard Medical School, 2016)
Values joined by “and” are separate entries in the source; they are usually repeats but may differ in a detail not shown here. Identical values can stand only once. The list shows a part of the results, in another mix than the full data. Active and inactive are the calls of the source. No stated cut-off is given here; in the data, active means fluorescence inhibition mostly above about 23% (no sharp cut-off); inactive means mostly below about 17%.

Test: hypoxia reporter signal reduction in M. tuberculosis – fluorescence, absorbance growth readout, primary screen (AID 1159583)
Details: M. tuberculosis hypoxia-regulated fluorescent reporter, active compounds read high, concentration not given here

SMILES	fluorescence inhibition
CN(C(=O)Cc1ccc(Cl)c(Cl)c1)C1CCCCC1N1CCCC1 (stereo unspecified)	inactive: -0.367% and inactive: 5.75% and inactive: 7.04%
CN(C)C(=O)c1c([N+](=O)[O-])cc([N+](=O)[O-])cc1[N+](=O)[O-]	inactive: 6.88%
CC1CCN(C(=O)Oc2c(Cl)cc(Cl)c3cccnc23)CC1	inactive: 5.54%
C[N+]1=C2C=CC=CC=C2SC12C([N+](=O)[O-])=CC([N+](=O)[O-])=C[C-]2[N+](=O)[O-] (stereo unspecified)	inactive: 18.3%
COc1ccccc1OP(C)(=O)Nc1ccccc1Br (stereo unspecified)	inactive: 18%
Nc1ccc([As](=O)(O)c2ccc(N)cc2)cc1	inactive: 13.1%
CC(C)(C)c1ccc(OP(C)(=O)O)cc1	inactive: 5.11%
CP(=O)(Nc1ccc(Cl)cc1)Oc1ccc(F)cc1 (stereo unspecified)	inactive: 11.2%
O=C(OCCCN1CCCC1)C(O)(c1ccccc1)C1CCCCC1 (stereo unspecified)	inactive: 2.71%
CC(=O)N1C2C3N(C(C)=O)C1C1N(C(C)=O)C(C(N1C(C)=O)N3C(C)=O)N2C(C)=O	inactive: 10.5%
CCc1ccc(OP(C)(=O)Nc2cccnc2)cc1 (stereo unspecified)	inactive: -2.82%
O=[N+]([O-])c1cc([N+](=O)[O-])c(CCNc2ccccc2)c([N+](=O)[O-])c1	inactive: 7.67%
CCc1nc2c(n1)c1c(non1O)c1c2no[n+]1[O-]	inactive: 14.1%
Cc1ccc(NP(=O)(Oc2ccccc2)Oc2ccccc2)nc1	inactive: 2.11%
COc1ccc(C2=NCC(CBr)S2)cc1 (stereo unspecified)	inactive: 3.4%
COc1ccc(OP(C)(=O)Nc2ccc(Br)cc2)cc1 (stereo unspecified)	inactive: -0.455%
CCN(CC)CC(O)COC(=O)C(O)(c1ccccc1)C1CCCCC1 (stereo unspecified)	inactive: 6.3%
O=[N+]([O-])c1cccc(NC2=NCC(CBr)S2)c1 (stereo unspecified)	inactive: 10.1%
O=C(O)CNc1ccc([As](=O)(O)O)cc1	inactive: 6.15%
CC(C)(C)C(=O)NC(Sc1ccncn1)C(Cl)(Cl)Cl (stereo unspecified)	inactive: 2.69%
O=[N+]([O-])c1ncn(CCn2ncnc2[N+](=O)[O-])n1	inactive: -5.82%
O=C(Nc1cc([As](=O)(O)O)ccc1O)c1ccccc1	inactive: 1.8%
CP(=O)(OC12CC3CC(CC(C3)C1)C2)OC12CC3CC(CC(C3)C1)C2	inactive: 16.3%
Nc1ccc2c(ccc3cccnc32)n1.O=[N+]([O-])c1cc([N+](=O)[O-])c(O)c([N+](=O)[O-])c1	inactive: 0.546%

SMILES	fluorescence inhibition
O=P1(N(CCCl)CCCl)OCCCS1 (stereo unspecified)	inactive: 11.5%
CCN(N=Nc1nonc1N)c1nonc1N	inactive: 7.55%
CP(=O)(Nc1ccc(Cl)cc1Cl)Oc1ccccc1 (stereo unspecified)	inactive: 0.0468%
COc1ccccc1OP(C)(=O)Nc1ccc(C)c(C)c1 (stereo unspecified)	inactive: 9.16%
Cc1ccc(NP(=O)(Oc2ccccc2F)Oc2ccccc2F)nc1	inactive: 6.5%
Cc1cc(SC(NC(=O)c2ccc(F)cc2)C(Cl)(Cl)Cl)ncn1 (stereo unspecified)	inactive: -1.08%
CCOP(=O)(Nc1ccccc1)OCC	inactive: -13%
CC(C)=NN=C(N)N[N+](=O)[O-]	inactive: -1.04%
CCN(CC)CC(C)C(C)OC(=O)C(O)(c1ccccc1)c1ccccc1 (stereo unspecified)	inactive: 17.7%
CCCC1OP(N)(=O)OCC1CC (stereo unspecified)	inactive: 10.6%
CC(=O)Nc1ccc([As](=O)(O)O)cc1	inactive: 6.78%
O=C(O)c1ccccc1[As](=O)(O)O	inactive: -11.3%
O=P(Nc1nc2ccc(Cl)cc2s1)(c1ccccc1)c1ccccc1	inactive: 8.53%
Cc1cc(C)cc(OP(C)(=O)Nc2cccc(C(F)(F)F)c2)c1 (stereo unspecified)	inactive: -0.0218%
O=C1C(O)=C([N+](=O)[O-])C(=O)C(O)=C1[N+](=O)[O-]	inactive: 15.9%
COc1ccccc1OP(C)(=O)Nc1ccc(C)cc1C (stereo unspecified)	inactive: 9.05%
CCc1ccc(OP(C)(=O)O)cc1	inactive: -2.54%
Nc1cc(N)c2nonc2c1[N+](=O)[O-]	inactive: -6.62%
Cc1c(NP(C)(=O)Oc2ccc(C(C)C)cc2)c(=O)n(-c2ccccc2)n1C (stereo unspecified)	inactive: 2.43%
O=[N+]([O-])c1cc([N+](=O)[O-])c(Nc2ccccn2)c([N+](=O)[O-])c1	active: 53.3%
CC(C)CC(=O)NC(Sc1ccc(Cl)cc1)C(Cl)(Cl)Cl (stereo unspecified)	inactive: 3.66%
O=C(NC(Sc1ccncn1)C(Cl)(Cl)Cl)c1ccccc1 (stereo unspecified)	inactive: 1.15%
Oc1ccccc1CNc1ccccn1	inactive: 14.1%
Cc1ccc(OP(=O)(Nc2nccs2)Oc2ccc(C)cc2)cc1	inactive: 16.5%

SMILES	fluorescence inhibition
COc1ccccc1OP(=O)(Nc1ccc(C)cn1)Oc1ccccc1OC	inactive: 2.47%
COc1ccc(OP(C)(=O)Nc2ccccn2)cc1 (stereo unspecified)	inactive: -2.68%
CN1CCCC(OC(=O)C(c2ccccc2)c2ccccc2)C1 (stereo unspecified)	inactive: -0.423%
CN(C)CCOC(=O)C(O)(c1ccccc1)C1CCCC1 (stereo unspecified)	inactive: 16.5%
Clc1ccc(Cl)c(NC2=NCC(CBr)S2)c1 (stereo unspecified)	inactive: 0.369%
NC(=O)c1cc([N+](=O)[O-])cc([N+](=O)[O-])c1N	inactive: 5.08%
COc1ccccc1OP(C)(=O)Nc1ccc(Br)cc1 (stereo unspecified)	inactive: 16%
CC(=O)Nc1ccc(Oc2c([N+](=O)[O-])cc([N+](=O)[O-])cc2[N+](=O)[O-])cc1	inactive: 6.1%
CC(=O)Nc1ccc([As](=O)(O)O)c(O)c1	inactive: 5.95%
O=C(OC1CN2CCC1CC2)c1ccc([N+](=O)[O-])cc1 (stereo unspecified)	inactive: 6.69%
CC(=O)c1ccc(N2CC2c2ccncc2)cc1 (stereo unspecified)	inactive: 8.46%
O=C(OCCN1CCN(CCOCc2ccccc2)CC1)C(O)(c1ccccc1)c1ccccc1	inactive: 7.75%
Cc1ccccc1CN(C)C(=O)COC(=O)C(O)(c1ccccc1)c1ccccc1	inactive: -10.7%
CP(=O)(Nc1ccccc1F)Oc1ccccc1 (stereo unspecified)	inactive: 3.56%
CCc1cc(O)c([N+](=O)[O-])c(C)c1[N+](=O)[O-]	inactive: 9.52%
CC(C)(C)C(=O)NC(Sc1ccccc1)C(Cl)(Cl)Cl (stereo unspecified)	inactive: 3.58%
CN(C(=O)Cc1ccccc1)C1CC[C@]2(CCCO2)CC1N1CCCC1 (stereo partly specified)	inactive: 8.6%
CCOc1ccc(C2=NCC(CBr)S2)cc1 (stereo unspecified)	inactive: 0.572%
O=P1(Nc2nc3ccc(Cl)cc3s2)COc2ccccc2O1 (stereo unspecified)	inactive: 4.17%
CP(=O)(Nc1ccccc1)Oc1ccc(F)cc1 (stereo unspecified)	inactive: 5.66%
O=[N+]([O-])c1cc([N+](=O)[O-])c(OC2CCCCC2O)c([N+](=O)[O-])c1 (stereo unspecified)	inactive: -13.5%
O=c1c2cc([N+](=O)[O-])ccc2[nH]c2c([N+](=O)[O-])cc([N+](=O)[O-])cc12	inactive: 30.8%
CN(C)C(=O)Oc1noc2ccccc12	inactive: 8.15%
CC(NC(=O)COC(=O)C(O)(c1ccccc1)c1ccccc1)c1ccccc1 (stereo unspecified)	inactive: -1.65%

SMILES	fluorescence inhibition
Cc1ccccc1OP(=O)(Nc1ccccn1)Oc1ccccc1C	inactive: 4.4%
CC(=O)NC(SC(=S)N(CC(C)C)CC(C)C)C(Cl)(Cl)Cl (stereo unspecified)	inactive: -5.83%
Cc1ccc(OP(=O)(Nc2ccccn2)Oc2ccc(C)cc2)cc1	inactive: -15.4%
COC(=O)c1cc2c(s1)N=C(c1ccccc1)N(C)P2(=O)N1CCOCC1 (stereo unspecified)	inactive: 2.53%
Cc1c([N+](=O)[O-])cc([N+](=O)[O-])c(Br)c1[N+](=O)[O-]	inactive: -2.86%
CCC(=O)N1C2C3N(C(=O)CC)C1C1N(C(=O)CC)C(C(N1C(=O)CC)N3C(=O)CC)N2C(=O)CC	inactive: 2.85%
CC1OP(=O)(Oc2ccccc2)CC2OC12 (stereo unspecified)	inactive: -0.938%
CCN(CC)CCCOC(=O)C(O)(c1ccccc1)C1CCCCC1 (stereo unspecified)	inactive: 9.25%
O=C(OC1CN2CCC1CC2)c1ccccc1 (stereo unspecified)	inactive: 6.62%
CCOC(=O)c1ccc(NP(C)(=O)Oc2ccc(F)cc2)cc1 (stereo unspecified)	inactive: 5.62%
O=P1(N(CCCl)CCCl)OCCC2CCCCN21 (stereo unspecified)	inactive: 3.27%
COc1ccc(OP(C)(=O)Nc2ccc(SC(F)(F)F)cc2)cc1 (stereo unspecified)	inactive: -4.83%
O=C(NC1CCS(=O)(=O)C1)NP(=S)(Oc1ccccc1)Oc1ccccc1 (stereo unspecified)	inactive: 6.09%
Cc1ccc(NP(=O)(Oc2cccc(C)c2)Oc2cccc(C)c2)nc1	inactive: -6.14%
c1ccc(-c2nn[nH]n2)c(-c2nn[nH]n2)c1	inactive: 13.7%
Nc1ccc([As](=O)(O)c2ccc([N+](=O)[O-])cc2)cc1	inactive: 22.9%
Cc1c(C(c2ccc3c(c2)OCO3)c2c(C)n(C)n(-c3ccccc3)c2=O)c(=O)n(-c2ccccc2)n1C.O=[N+]([O-])c1cc([N+](=O)[O-])c(O)c([N+](=O)[O-])c1	inactive: -8.78%
O=[N+]([O-])c1ccc(O)c(C=NNc2ccc([N+](=O)[O-])cc2[N+](=O)[O-])c1	inactive: 20.9%
O=C(OC1CN2CCC1CC2)c1cccc(Cl)c1 (stereo unspecified)	inactive: -2.95%
O=[N+]([O-])c1ccc(OP2(=O)COCCO2)cc1 (stereo unspecified)	inactive: 8.16%
CC(=O)NC(SC(=S)N(C)C)C(Cl)(Cl)Cl (stereo unspecified)	inactive: 63.1%
O=[N+]([O-])c1ncn(CCn2cnc([N+](=O)[O-])n2)n1	inactive: 5.27%
CN(C(=O)Cc1ccc(Cl)c(Cl)c1)C1CC[C@@]2(CCCO2)CC1N1CCCC1 (stereo partly specified)	inactive: 2.32%
Cc1cc(-c2cccc3ccccc23)c(C)cn1.O=[N+]([O-])c1cc([N+](=O)[O-])c(O)c([N+](=O)[O-])c1	inactive: -1.45%
